Experimental data from article PMC12768970.
Where a protein sequence is shown, tags need not be part of it.

Molecular target: T1, Crp (UniProt C0MAI4)
T1 sequence (looked up): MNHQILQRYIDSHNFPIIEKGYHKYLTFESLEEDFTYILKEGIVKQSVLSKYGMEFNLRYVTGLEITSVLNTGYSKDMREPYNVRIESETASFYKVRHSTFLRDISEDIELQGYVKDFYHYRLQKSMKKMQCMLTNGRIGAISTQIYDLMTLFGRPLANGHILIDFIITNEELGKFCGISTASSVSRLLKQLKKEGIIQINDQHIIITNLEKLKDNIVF
Test: EMSA
Details: cAMP; 20 mM Tris-HCl pH 7.5, 30 mM KCl, 1 mM DTT, 1 mM EDTA, 10% glycerol; 80 ng DNA, 1-2 ug protein, 20 ul, 30 min, 37 C; native 8% PAGE in 0.5x TBE; recombinant protein; residues 1-219; protein details: His tag (pCold I); probe letters rebuilt from the primers and the genome

“CAATTCGCCAACCGTTTGTATATAAGGATCCAAAAATTCTTCCCAATCTAAAGCCATCCTTTCTCTCCTTTCTTGTCAAACCTCGGATATTAATATAAAATTAAGATAACAATTTATTATAGCATAAAATATAGTTAAAAGGAACGTTCGCATGACTAACCTAGAAATCGAATACAAGACCTTACTGACAAAGGACGAATATAACCGCCTCCTCTCTCAAATGACTCATGTCCCACCAGTTACCCAGACGAACTATTACATTGATACTGACCATTTTGATCTCAAGGCTCATAAAATGTCCCTTCGCATTCGCACCTTTGTTGCTGCTCCTGCTGAATTAACCTTAAAAGTCCCTGAAAAAGTTGGTAATCGCGAGTACAATTTAGAGCTTGATGACACCCAAGCAAAAGCTATCATTCAGACAGGACAGCTACCAAAATCAGCTATCCTTGATATTATCAGCACTCT (double strand) [relQ promoter (prelQ)]”: binds.
